Data on seven compounds can be found in paper PMC12495412, “Coumarin/nitrogen-bearing heterocyclic hybrid-loaded electrospun PMMA/PVP nanofibrous scaffolds for accelerating topical wound healing rates: synthesis and in vitro bio-evaluation” (RSC Advances, 2025).

In data set [1] the test system is A549 cells. The experiment in a line: MTT anticancer assay. The data set is classed as cell-based, human. To be noted: IC50 Wi-38 / IC50 A549. The text has this: (§1) MTT assay: the normal cell line (Wi-38), colon cancer (Caco-2), lung cancer (A549), and breast cancer (MDA) cell lines were sourced from ATCC, USA. All different cell lines were cultivated and preserved in DMEM medium (SERANA, Germany), accompanied by 10% FBS (Gibco, USA) and 1% Pen/Strep solution (Lonza, USA). The newly prepared derivatives at various doses were considered for their anticancer activity and their safety on normal cells, applying MTT (3-[4, 5-dimethylthiazol]-2, 5-diphenyltetrazolium bromide) methods.[22] At first, all normal and cancer cell lines (1.0 ×10^4) were inoculated in 4 antiseptic 96-well tissue culture microplates and incubated for 24 h in a CO2 incubator. After cell attachments, the prepared derivatives were added to both normal Wi-38 cells at diverse concentrations of (6.25–200 μg mL^−1, 2-fold) and cancer cells at different concentrations of (3.125–100 μg mL^−1, 2-fold) in triplicate and incubated for another 48 h at 37 °C in a CO2 incubator with an adjusted concentration of 5%. After that, the treated cells were cleaned three times with PBS to remove debris and dead cells. Next, 200 μL of 0.5 mg mL^−1 MTT dye solution in PBS was mixed in each well, and the cells were further kept for 3 h at 37 °C in a 5% CO2 incubator. After that, MTT was removed and 200 μL of DMSO was added to each well. The optical density (OD) was recorded at 570 nm via a microplate reader (B.M.G. LabTech, Germany). Basic cells (untreated) were utilized as negative control cells, and 5-fluorouracil (5-FU) was included as a standard chemotherapy drug. The qualified cell viability (%) was evaluated as in equation (eqn (1)):1 Relative cell viability (%) = […] A1 is the OD of the examined derivative, A0 is the OD of the standard, and AU is the OD of the untreated cells.
(§2) Anticancer activity assay: the anticancer effect of each derivative was assessed by evaluating the half-maximal inhibitory concentration (IC50) value via the GraphPad Prism 7.0 software. However, SI (selective index) values of each derivative were estimated by splitting the IC50 value of healthy cells by the IC50 value of malignant cells, as previously reported.[23] The effects of the created derivatives on the morphology of MDA cells were evaluated at IC50 doses and captured by phase-contrast microscopy (Olympus, Germany) in comparison to untreated control cells.
On the technique in general: Tetrazolium dyes change colour on reduction, which living cells bring about.

The test system of data set [2] is MDA cells. The experiment in a line: MTT anticancer assay. The data set is classed as cell-based, human. To be noted: IC50 Wi-38 / IC50 MDA.
Description: as §1, §2

`Nc1ccc(Nc2ccnc3cc(Cl)ccc23)cc1` [Compound A1]: the “SI A549” value in data set [1] was 5.47 ± 0.44. Further, the “SI MDA” value in data set [2] was found to be 11.76 ± 0.94.

Consider `O=c1[nH]cc(F)c(=O)[nH]1` [Compound 5-FU, 5-fluorouracil, reference compound], for which the “SI A549” value in data set [1] turned out to be 0.92 ± 0.03. Moreover, the “SI MDA” value in data set [2] is on record as 0.89 ± 0.02.

Take `Nc1ccc(Nc2c3ccccc3nc3ccccc23)cc1` [Compound B1]: the “SI A549” value in data set [1] was 11.52 ± 0.85. Further, the “SI MDA” value in data set [2] turned out to be 21.86 ± 1.62.

As to `Cc1ccc(-c2nnc(Nc3ccc(NC(=O)c4cc5ccccc5oc4=O)cc3)c3ccccc23)cc1` [Compound C, 2-oxo-N-(4-((4-(p-tolyl)phthalazin-1-yl)amino)phenyl)-2H-chromene-3-carboxamide], the “SI A549” value in data set [1] is 11.25 ± 1.04. In data set [2], the “SI MDA” value was 22.59 ± 1.93.

`O=C(Nc1ccc(Nc2ccnc3cc(Cl)ccc23)cc1)c1cc2ccccc2oc1=O` [Compound A, N-(4-((7-chloroquinolin-4-yl)amino)phenyl)-2-oxo-2H-chromene-3-carboxamide]: the “SI A549” value in data set [1] is listed as 12.11 ± 1.05. In data set [2], the “SI MDA” value is 25.44 ± 2.21.

On to `Cc1ccc(-c2nnc(Nc3ccc(N)cc3)c3ccccc23)cc1` [Compound C1], for which the “SI A549” value in data set [1] was determined as 9.17 ± 0.79. For the same compound, the “SI MDA” value in data set [2] is listed as 13.78 ± 1.21.

Take `O=C(Nc1ccc(Nc2c3ccccc3nc3ccccc23)cc1)c1cc2ccccc2oc1=O` [Compound B, N-(4-(acridin-9-ylamino)phenyl)-2-oxo-2H-chromene-3-carboxamide]: the “SI A549” value in data set [1] is 18.09 ± 1.57. Moreover, in data set [2], the “SI MDA” value is recorded as 29.58 ± 2.56.
